Article PMC10301793 (Marine Drugs, 2023)

The chains behind the UniProt entries cited, without tags or fusion partners. Residues count along the entry.
UniProt P09483, 31-630 limits assumed: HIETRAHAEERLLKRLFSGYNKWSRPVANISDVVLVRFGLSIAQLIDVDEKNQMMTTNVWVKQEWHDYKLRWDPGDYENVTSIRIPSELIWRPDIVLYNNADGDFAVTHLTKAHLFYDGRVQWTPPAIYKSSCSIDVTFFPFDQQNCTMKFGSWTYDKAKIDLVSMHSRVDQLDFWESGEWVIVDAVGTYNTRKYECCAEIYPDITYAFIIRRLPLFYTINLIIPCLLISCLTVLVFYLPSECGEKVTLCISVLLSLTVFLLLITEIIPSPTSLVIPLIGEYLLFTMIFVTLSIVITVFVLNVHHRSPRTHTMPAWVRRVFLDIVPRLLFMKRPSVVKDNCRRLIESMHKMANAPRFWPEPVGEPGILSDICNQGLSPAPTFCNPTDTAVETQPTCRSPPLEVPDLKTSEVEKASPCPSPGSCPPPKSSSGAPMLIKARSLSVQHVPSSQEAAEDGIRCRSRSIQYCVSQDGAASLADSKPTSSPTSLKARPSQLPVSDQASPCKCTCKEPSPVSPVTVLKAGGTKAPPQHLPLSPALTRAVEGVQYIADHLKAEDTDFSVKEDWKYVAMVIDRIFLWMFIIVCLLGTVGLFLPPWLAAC
UniProt P12390, 25-500 limits assumed: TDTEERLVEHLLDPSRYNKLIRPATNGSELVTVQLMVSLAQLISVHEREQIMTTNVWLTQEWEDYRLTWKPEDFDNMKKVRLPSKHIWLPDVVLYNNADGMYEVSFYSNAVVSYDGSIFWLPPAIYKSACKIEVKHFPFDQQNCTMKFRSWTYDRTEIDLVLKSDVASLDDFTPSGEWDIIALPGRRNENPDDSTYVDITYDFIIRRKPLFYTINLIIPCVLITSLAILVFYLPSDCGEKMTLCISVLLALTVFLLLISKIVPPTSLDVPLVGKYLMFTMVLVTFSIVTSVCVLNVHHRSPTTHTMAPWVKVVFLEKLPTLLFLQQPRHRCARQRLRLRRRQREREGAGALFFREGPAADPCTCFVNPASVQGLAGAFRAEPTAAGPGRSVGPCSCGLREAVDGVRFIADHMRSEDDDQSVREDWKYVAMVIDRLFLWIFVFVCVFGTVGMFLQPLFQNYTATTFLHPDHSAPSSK
UniProt P12390, whole entry, looked up: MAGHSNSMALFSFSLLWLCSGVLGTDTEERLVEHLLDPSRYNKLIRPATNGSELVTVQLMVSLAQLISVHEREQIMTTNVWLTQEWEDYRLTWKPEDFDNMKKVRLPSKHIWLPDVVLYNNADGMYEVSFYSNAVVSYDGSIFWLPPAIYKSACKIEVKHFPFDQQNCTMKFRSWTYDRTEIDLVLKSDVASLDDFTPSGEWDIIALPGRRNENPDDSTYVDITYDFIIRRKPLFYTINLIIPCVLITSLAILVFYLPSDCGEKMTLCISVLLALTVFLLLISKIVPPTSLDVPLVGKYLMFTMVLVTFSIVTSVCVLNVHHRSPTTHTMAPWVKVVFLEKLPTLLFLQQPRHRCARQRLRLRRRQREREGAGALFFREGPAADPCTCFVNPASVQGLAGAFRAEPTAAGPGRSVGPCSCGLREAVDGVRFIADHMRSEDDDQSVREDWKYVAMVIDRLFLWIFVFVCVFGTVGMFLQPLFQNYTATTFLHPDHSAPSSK
UniProt P12389, 28-511 limits assumed: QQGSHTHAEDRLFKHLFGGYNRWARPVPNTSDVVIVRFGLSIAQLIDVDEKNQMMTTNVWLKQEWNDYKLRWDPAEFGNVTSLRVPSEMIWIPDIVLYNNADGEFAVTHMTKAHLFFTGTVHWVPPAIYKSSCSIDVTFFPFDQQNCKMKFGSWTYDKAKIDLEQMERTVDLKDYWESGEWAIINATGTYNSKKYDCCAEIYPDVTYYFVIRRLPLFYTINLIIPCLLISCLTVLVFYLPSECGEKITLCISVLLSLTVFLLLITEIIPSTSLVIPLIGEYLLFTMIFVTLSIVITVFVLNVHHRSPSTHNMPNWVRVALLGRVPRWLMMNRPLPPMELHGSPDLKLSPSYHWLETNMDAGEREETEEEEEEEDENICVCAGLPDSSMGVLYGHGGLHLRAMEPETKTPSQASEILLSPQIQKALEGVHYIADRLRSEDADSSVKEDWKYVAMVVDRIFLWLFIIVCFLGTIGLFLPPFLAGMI
UniProt Q05941, 23-502 limits assumed: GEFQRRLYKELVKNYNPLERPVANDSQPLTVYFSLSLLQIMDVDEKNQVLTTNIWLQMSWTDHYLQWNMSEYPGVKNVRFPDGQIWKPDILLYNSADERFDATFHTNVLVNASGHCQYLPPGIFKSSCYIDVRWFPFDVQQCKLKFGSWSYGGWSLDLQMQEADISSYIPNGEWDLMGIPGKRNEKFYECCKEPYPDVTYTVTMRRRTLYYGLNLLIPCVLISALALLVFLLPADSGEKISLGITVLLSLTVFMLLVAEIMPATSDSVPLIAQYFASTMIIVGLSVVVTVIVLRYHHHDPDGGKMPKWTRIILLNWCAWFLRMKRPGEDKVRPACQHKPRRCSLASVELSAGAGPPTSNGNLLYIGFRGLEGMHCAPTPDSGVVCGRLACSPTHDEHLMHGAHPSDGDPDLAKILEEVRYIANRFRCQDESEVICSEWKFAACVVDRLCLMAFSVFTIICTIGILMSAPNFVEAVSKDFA
UniProt P04757, 26-499 limits assumed: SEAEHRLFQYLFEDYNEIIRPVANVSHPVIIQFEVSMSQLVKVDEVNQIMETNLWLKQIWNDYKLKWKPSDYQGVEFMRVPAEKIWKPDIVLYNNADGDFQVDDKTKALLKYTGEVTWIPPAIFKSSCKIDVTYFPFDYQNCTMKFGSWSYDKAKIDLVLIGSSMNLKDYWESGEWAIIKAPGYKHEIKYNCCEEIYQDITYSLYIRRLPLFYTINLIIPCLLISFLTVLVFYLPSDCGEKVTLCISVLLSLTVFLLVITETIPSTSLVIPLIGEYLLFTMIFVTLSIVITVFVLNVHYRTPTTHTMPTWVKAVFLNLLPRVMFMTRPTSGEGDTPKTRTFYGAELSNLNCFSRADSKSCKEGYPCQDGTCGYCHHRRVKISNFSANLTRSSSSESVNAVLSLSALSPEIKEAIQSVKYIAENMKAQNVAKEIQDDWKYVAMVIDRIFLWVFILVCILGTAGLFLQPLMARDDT
UniProt P04757, whole entry, looked up: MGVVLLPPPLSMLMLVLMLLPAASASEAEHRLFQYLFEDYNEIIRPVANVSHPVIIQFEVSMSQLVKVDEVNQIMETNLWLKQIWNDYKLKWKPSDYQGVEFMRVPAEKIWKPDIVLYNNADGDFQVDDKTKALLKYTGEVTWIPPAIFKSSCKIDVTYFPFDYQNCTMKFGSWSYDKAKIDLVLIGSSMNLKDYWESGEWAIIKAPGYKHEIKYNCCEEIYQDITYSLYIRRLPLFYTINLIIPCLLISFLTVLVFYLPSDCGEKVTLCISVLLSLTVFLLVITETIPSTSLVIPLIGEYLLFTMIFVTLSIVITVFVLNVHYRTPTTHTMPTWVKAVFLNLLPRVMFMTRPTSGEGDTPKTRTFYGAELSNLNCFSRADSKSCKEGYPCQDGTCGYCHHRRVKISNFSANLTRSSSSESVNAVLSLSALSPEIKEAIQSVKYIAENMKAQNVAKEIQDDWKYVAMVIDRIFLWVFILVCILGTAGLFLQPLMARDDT
UniProt P12392, 21-495 limits assumed: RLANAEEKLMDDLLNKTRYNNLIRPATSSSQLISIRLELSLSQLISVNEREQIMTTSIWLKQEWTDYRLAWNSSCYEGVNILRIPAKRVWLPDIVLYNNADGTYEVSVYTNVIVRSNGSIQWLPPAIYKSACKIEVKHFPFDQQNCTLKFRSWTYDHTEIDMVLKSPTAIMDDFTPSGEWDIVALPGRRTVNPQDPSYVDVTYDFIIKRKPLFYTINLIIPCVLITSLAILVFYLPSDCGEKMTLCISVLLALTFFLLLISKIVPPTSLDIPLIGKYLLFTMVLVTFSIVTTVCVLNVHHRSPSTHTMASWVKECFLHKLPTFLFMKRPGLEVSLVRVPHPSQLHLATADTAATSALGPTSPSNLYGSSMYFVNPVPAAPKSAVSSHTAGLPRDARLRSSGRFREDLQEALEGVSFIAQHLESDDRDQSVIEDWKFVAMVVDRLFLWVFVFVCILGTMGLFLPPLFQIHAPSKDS
UniProt P12392, whole entry, looked up: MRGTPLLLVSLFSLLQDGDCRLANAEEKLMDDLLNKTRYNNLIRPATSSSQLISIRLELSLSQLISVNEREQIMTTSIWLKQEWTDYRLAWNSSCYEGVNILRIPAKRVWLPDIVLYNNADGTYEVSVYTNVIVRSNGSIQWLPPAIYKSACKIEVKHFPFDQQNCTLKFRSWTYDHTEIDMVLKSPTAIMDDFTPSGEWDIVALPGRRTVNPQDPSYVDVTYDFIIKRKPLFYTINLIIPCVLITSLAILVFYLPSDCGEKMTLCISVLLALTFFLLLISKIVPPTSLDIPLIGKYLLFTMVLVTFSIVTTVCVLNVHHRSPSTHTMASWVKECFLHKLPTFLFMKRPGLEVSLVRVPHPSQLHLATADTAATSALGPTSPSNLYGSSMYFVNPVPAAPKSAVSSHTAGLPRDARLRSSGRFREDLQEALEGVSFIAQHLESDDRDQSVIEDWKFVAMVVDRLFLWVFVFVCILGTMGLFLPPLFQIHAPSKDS
UniProt P43143, whole entry M241L/F253L/V303I/V320I/I327V/A333T/K339T, looked up: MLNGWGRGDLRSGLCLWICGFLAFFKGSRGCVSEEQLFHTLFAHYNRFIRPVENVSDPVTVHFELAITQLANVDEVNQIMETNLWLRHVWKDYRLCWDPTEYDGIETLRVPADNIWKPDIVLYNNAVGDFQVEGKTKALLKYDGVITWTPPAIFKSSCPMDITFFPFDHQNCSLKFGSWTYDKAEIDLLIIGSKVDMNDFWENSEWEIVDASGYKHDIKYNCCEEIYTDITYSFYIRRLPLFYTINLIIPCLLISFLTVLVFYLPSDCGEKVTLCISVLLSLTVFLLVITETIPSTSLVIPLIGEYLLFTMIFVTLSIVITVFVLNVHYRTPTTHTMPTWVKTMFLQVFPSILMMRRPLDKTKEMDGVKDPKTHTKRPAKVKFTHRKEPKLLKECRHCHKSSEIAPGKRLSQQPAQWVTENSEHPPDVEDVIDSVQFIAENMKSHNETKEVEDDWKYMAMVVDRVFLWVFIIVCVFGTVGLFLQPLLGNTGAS
UniProt P12391, whole entry, looked up: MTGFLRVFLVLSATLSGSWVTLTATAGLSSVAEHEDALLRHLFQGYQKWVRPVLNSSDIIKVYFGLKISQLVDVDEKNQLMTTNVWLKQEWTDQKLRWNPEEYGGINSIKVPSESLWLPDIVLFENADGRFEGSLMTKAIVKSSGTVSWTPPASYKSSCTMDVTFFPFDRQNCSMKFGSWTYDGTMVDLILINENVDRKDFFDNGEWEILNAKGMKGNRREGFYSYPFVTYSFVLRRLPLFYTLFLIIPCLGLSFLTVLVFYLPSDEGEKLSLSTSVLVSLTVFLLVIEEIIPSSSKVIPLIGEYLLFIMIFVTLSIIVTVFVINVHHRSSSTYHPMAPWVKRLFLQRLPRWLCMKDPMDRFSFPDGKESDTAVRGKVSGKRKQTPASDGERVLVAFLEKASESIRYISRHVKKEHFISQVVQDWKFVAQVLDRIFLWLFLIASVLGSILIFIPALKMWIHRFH

How the values were obtained:
Experiment in all cases: two-electrode voltage clamp, inhibition of ACh responses in Xenopus oocytes
[1] = target: muscle-type nAChR α1β1γδ (αβγδ) (Rattus norvegicus, UniProt P18916+P25108+P25109+P25110)
α4β2 nAChR = α4β2 nAChR (Rattus norvegicus, UniProt P09483+P12390); assay type: cell-based; conditions: rat α4β2 in Xenopus laevis oocytes; TEVC −70 mV; 100 μM ACh 2-s pulses; 3-min preincubation; ND96 pH 7.4; mean of at least three to four measurements, oocytes from at least two frogs; Hill fit
α2β2 nAChR = α2β2 nAChR (Rattus norvegicus, UniProt P12389+P12390); assay type: cell-based; conditions: rat α2β2 in Xenopus laevis oocytes; TEVC −70 mV; 100 μM ACh 2-s pulses; 3-min preincubation; ND96 pH 7.4; mean of at least three to four measurements, oocytes from at least two frogs; Hill fit
α7 nAChR = α7 nAChR (Rattus norvegicus, UniProt Q05941); assay type: cell-based; conditions: rat α7 in Xenopus laevis oocytes; TEVC −70 mV; 100 μM ACh 2-s pulses; 3-min preincubation; ND96 pH 7.4; mean of at least three to four measurements, oocytes from at least two frogs; Hill fit
α3β2 nAChR = α3β2 nAChR (Rattus norvegicus, UniProt P04757+P12390); assay type: cell-based; conditions: rat α3β2 in Xenopus laevis oocytes; TEVC −70 mV; 100 μM ACh 2-s pulses; 3-min preincubation; ND96 pH 7.4; mean of at least three to four measurements, oocytes from at least two frogs; Hill fit
α3β4 nAChR = α3β4 nAChR (Rattus norvegicus, UniProt P04757+P12392); assay type: cell-based; conditions: rat α3β4 in Xenopus laevis oocytes; TEVC −70 mV; 100 μM ACh 2-s pulses; 3-min preincubation; ND96 pH 7.4; mean of at least three to four measurements, oocytes from at least two frogs; Hill fit
α6/α3β4 nAChR = α6/α3β4 nAChR (Rattus norvegicus, UniProt P04757+P12392+P43143); assay type: cell-based; conditions: rat α6/α3β4 (α6/α3 chimera) in Xenopus laevis oocytes; TEVC −70 mV; 100 μM ACh 2-s pulses; 3-min preincubation; ND96 pH 7.4; mean of at least three to four measurements, oocytes from at least two frogs; Hill fit
α4β4 nAChR = α4β4 nAChR (Rattus norvegicus, UniProt P09483+P12392); assay type: cell-based; conditions: rat α4β4 in Xenopus laevis oocytes; TEVC −70 mV; 100 μM ACh 2-s pulses; 3-min preincubation; ND96 pH 7.4; mean of at least three to four measurements, oocytes from at least two frogs; Hill fit
α6/α3β2β3 nAChR = α6/α3β2β3 nAChR (Rattus norvegicus, UniProt P04757+P12390+P12391+P43143); assay type: cell-based; conditions: rat α6/α3β2β3 (α6/α3 chimera) in Xenopus laevis oocytes; TEVC −70 mV; 100 μM ACh 2-s pulses; 3-min preincubation; ND96 pH 7.4; mean of at least three to four measurements, oocytes from at least two frogs; Hill fit

C[C@@H]1NC(=O)[C@@H]2CCCN2C(=O)[C@H](Cc2c[nH]cn2)NC(=O)[C@@H]2CSSC[C@@H](C(N)=O)NC(=O)[C@H](CC(N)=O)NC(=O)[C@H](Cc3ccc(O)cc3)NC(=O)[C@H](CCCCN)NC(=O)[C@H](CCCNC(=N)N)NC(=O)CNC(=O)[C@H](CSSC[C@H](NC(=O)[C@H](CCCNC(=N)N)NC(=O)CN)C(=O)N2)NC1=O [GaIA]
IC50 ([1]; rat muscle α1β1γδ in Xenopus laevis oocytes, TEVC −70 mV, 100 μM ACh 2-s pulses, 3-min preincubation, ND96 pH 7.4, mean of at least three to four measurements, oocytes from at least two frogs, Hill fit): 0.0384 µM
Hill Slope ([1]; rat αβγδ, four-parameter logistic fit, plateaus constrained to 100% and 0%): −1.23
IC50 (α4β2 nAChR): 3.93 µM
IC50 (α2β2 nAChR): 6.47 µM
IC50 (α7 nAChR): 5.16 µM
IC50 (α3β2 nAChR): 0.989 µM
IC50 (α3β4 nAChR): 7.91 µM
IC50 (α6/α3β4 nAChR): 18.2 µM
IC50 (α4β4 nAChR): 49.4 µM
IC50 (α6/α3β2β3 nAChR): 1.17 µM

Only a part of the results on these compounds is given; other tests are left out.
